Values of other authors, collected in PMC12707294 (Analytical chemistry, 2025).
Read-outs that look alike come from different tables or passages of the source.

Protein sequences, listed by entry. Tags and fused reporters are not part of them. Residues count along the entry.
UniProt P01556, 22-124 limits assumed: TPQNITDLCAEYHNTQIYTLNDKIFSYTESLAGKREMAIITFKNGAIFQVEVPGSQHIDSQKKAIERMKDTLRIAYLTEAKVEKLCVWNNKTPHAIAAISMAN

Columns and labels:
[1] = molecular target: T1, Cholera toxin B subunit homopentamer (CTB5) (Vibrio cholerae serotype O1, UniProt P01556); settings: read-out: Kd,int; cited from earlier work
[2] = molecular target: T1, Cholera toxin B subunit homopentamer (CTB5); settings: read-out: Intrinsic Kd; cited from earlier work

In the case of GM1 pentasaccharide [GM1os], the Kd [1] is listed as 156 ± 7 nM and the Kd [2] is listed as 310 ± 20 nM.
